Measured values from several laboratories, pooled; numbers as filed in NIAID ChemDB.

All rows: toxicity to cultured cells; cells: Huh7; read-out: CC50

a–b is a range or a potency band. An empty or dashed field is not shown. Rows are shuffled and stem from different studies. CCn is the concentration with n% toxicity to the cells.

{"compound": "CCOc1nc(N)nc2ncc(-c3ccc(C)cc3)nc12", "result": ">20 µM"}
{"compound": "CCCCCCCCCCOC(=O)/C=C/c1ccc(O)c(O)c1", "method": "MTS", "result": "57.9 µM"}
{"compound": "COc1ccc(N(Cc2c(Cl)cccc2Cl)S(=O)(=O)c2cccc(C#N)c2)cc1C(=O)O", "method": "absorbance", "result": "25 µM"}
{"compound": "COc1ccc(/C(N)=N/OC(=O)N2CCOCC2)cc1", "method": "MTS", "result": "63.3 µM"}
{"compound": "Cc1ccc(Sc2ccc(O)cc2)c(Nc2ncnc3nc(C(C)(C)C)ccc23)c1", "method": "MTT", "result": "7.1 µM"}
{"compound": "N/C(=N\\OC(=O)N1CCOCC1)c1ccc(O)cc1", "method": "MTS", "result": "87.8 µM"}
{"compound": "COc1ccc2c(c1)[C@@H]1C[C@]1(C(=O)N1[C@@H]3CC[C@H]1CN(C)C3)Cn1c-2c(C2CCCCC2)c2ccc(C(=O)NS(=O)(=O)N(C)C)cc21", "method": "resazurin", "result": "20 µM"}
{"compound": "Nc1nc(O[C@H]2CCOC2)c2nc(-c3ccc(C(=O)NCCCN4CCCC4)cc3)ccc2n1", "result": ">20 µM"}
{"compound": "Cc1ccccc1C(Nc1s[nH]c(=O)c1C#N)c1ccc(F)cc1C", "result": ">50 µM"}
{"compound": "CCCCNC(=O)N1CCN(c2nc(N)nc3ncc(-c4ccc(OC)c(OC)c4)nc23)CC1", "method": "ATP", "result": "<10 µM"}
{"compound": "N#Cc1c(Nc2ccc(I)c(Cl)c2)s[nH]c1=O", "result": ">50 µM"}
{"compound": "Nc1ncnc2c1c(Br)nn2[C@@H]1C=C(CO)[C@@H](O)[C@H]1O", "method": "tetrazolium", "result": "80.7 µM"}
{"compound": "Nc1ccn([C@@H]2C[C@H](CO)[C@@H](O)C23CC3)c(=O)n1", "method": "XTT", "result": "40.6 µM"}
{"compound": "Nc1nc(N2CCOCC2)c2nc(-c3cccc(Cl)c3Cl)cnc2n1", "result": ">20 µM"}
{"compound": "N#Cc1c(Nc2ccc(F)cc2)s[nH]c1=O", "result": ">50 µM"}
{"compound": "CCOc1nc(N)nc2ccc(-c3ccc(NC(=O)C(C)(C)N)cc3)nc12", "result": ">20 µM"}
{"compound": "Nc1nc(N2CCOCC2)c2nc(-c3ccc(Cl)s3)cnc2n1", "result": "<10 µM"}
{"compound": "NS(=O)(=O)c1ccc(CNc2nc(NCC(F)(F)F)c3nc(-c4ccc(C(=O)NC5CC5)cc4)cnc3n2)cc1", "method": "ATP", "result": ">20 µM"}
{"compound": "COCCOC(=O)NC(=S)Nc1ccc(Oc2ccc(Cl)cc2)c(Cl)c1", "method": "MTS", "result": "25.3 µM"}
{"compound": "CCc1nc(N(C)C)nc(N[C@@H]2C[C@H](CO)[C@@H](O)[C@H]2O)c1-c1nc2ccccc2s1", "method": "MTS", "result": "16 µM"}
{"compound": "CC(C)Oc1nc(N)nc2ccc(-c3ccc(C(=O)NC4CCCC4)cc3)nc12", "result": ">20 µM"}
{"compound": "COc1ccc(-c2cnc3nc(N)nc(N4CCN(CC(=O)N5CCCC5)CC4)c3n2)cc1OC", "method": "ATP", "result": "10–20 µM"}
{"compound": "O=C(Nc1ccc(C#Cc2ccc(NC(=O)[C@@H]3CCCN3C(=O)[C@@H](c3ccccc3)N3CCOCC3)cc2)cc1)[C@@H]1CCCN1C(=O)[C@@H](c1ccccc1)N1CCOCC1", "method": "resazurin", "result": ">10 µM"}
{"compound": "CCCCc1ccc(C(=O)N2CCN(c3nc(N)nc4ncc(-c5ccc(OC)c(OC)c5)nc34)CC2)cc1", "method": "ATP", "result": "<10 µM"}
{"compound": "CCCCOc1nc(N)nc2ncc(-c3ccc(F)cc3)nc12", "result": ">20 µM"}
{"compound": "COc1cc(C2C3CO[C@]4(O)C[C@H]2C=C([C@H]2Oc5cc(O)cc(O)c5C(=O)[C@@H]2O)[C@H]34)ccc1O", "method": "absorbance", "result": ">250 µM"}
{"compound": "Nc1nc(N2CCOCC2)c2nc(-c3cccnc3F)cnc2n1", "result": "10–20 µM"}
{"compound": "CC(C)c1ccc(Nc2s[nH]c(=O)c2C#N)cc1", "result": "<50 µM"}
{"compound": "Cc1ccc(Sc2ccc(O)cc2)c(Nc2ncnc3nc(CC(C)C)ccc23)c1", "method": "MTT", "result": "11.2 µM"}
{"compound": "COc1ccc(-c2cnc3nc(N)nc(N4CCN(C(=O)Nc5ccc(F)cc5)CC4)c3n2)cc1OC", "method": "ATP", "result": "<10 µM"}
{"compound": "Nc1nc(N2CCOCC2)c2nc(-c3ccc(OC(F)(F)F)cc3)cnc2n1", "result": "10–20 µM"}
{"compound": "Cc1nc(N(C)C)nc(N[C@@H]2C[C@H](CO)[C@@H](O)[C@H]2O)c1-c1nc2ccccc2s1", "method": "MTS", "result": ">25 µM"}
{"compound": "Nc1nc(N2CCOCC2)c2nc(-c3ccsc3)cnc2n1", "result": ">20 µM"}
{"compound": "CC(=O)N1CCN(C(C(=O)N2CCC[C@H]2C(=O)Nc2ccc(C#Cc3ccc(NC(=O)[C@@H]4CCCN4C(=O)C(c4ccccc4)N4CCN(C(C)=O)CC4)cc3)cc2)c2ccccc2)CC1", "method": "resazurin", "result": ">10 µM"}
{"compound": "Nc1ncnc2c1c(Cl)nn2[C@@H]1C=C(CO)[C@@H](O)[C@H]1O", "method": "tetrazolium", "result": ">100 µM"}
{"compound": "CCC(=O)Nc1ccc(-c2ccc3nc(N)nc(NCCS(C)(=O)=O)c3n2)cc1", "result": ">20 µM"}
{"compound": "N[C@@H](C(=O)N1CCC[C@H]1C(=O)Nc1ccc(C#Cc2ccc(NC(=O)[C@@H]3CCCN3C(=O)[C@H](N)c3ccccc3)cc2)cc1)c1ccccc1", "method": "resazurin", "result": "9.8 µM"}
{"compound": "Cc1ccc(Sc2ccccc2)c(Nc2ncnc3nc(C)ccc23)c1", "method": "MTT", "result": "22.2 µM"}
{"compound": "O=C(O[C@@H]1Cc2c(O)cc(O)cc2O[C@@H]1c1cc(O)c(O)c(O)c1)c1ccc(F)c(F)c1", "method": "MTS", "result": ">1000 µM"}
{"compound": "CCCCOC(=O)/C=C/c1ccc(O)c(O)c1", "method": "MTS", "result": "39 µM"}
{"compound": "N/C(=N\\OC(=O)N1CCOCC1)c1c(Cl)cccc1Cl", "method": "MTS", "result": ">100 µM"}
{"compound": "Cc1ccc(Sc2ccc(O)cc2)c(Nc2ncnc3nc(C4CCC4)ccc23)c1", "method": "MTT", "result": "31.8 µM"}
{"compound": "CCOc1nc(N)nc2ncc(-c3ccc(S(C)(=O)=O)cc3)nc12", "result": ">20 µM"}
{"compound": "N#Cc1c(NCCc2ccc(O)cc2)s[nH]c1=O", "result": ">50 µM"}
{"compound": "CC(=O)Nc1ccc(Sc2ccc(C)cc2Nc2ncnc3nc(CC(C)C)ccc23)cc1", "method": "MTT", "result": "38.5 µM"}
{"compound": "COc1ccc([C@@H]2Oc3ccc([C@H]4Oc5cc(O)cc(O)c5C(=O)[C@@H]4O)cc3O[C@H]2CO)cc1O", "method": "absorbance", "result": "168 µM"}
{"compound": "Nc1ncnc2c1ncn2[C@@H]1C[C@H](CO)[C@@H](O)C12CC2", "method": "XTT", "result": ">50 µM"}
{"compound": "Cc1ccc(Sc2ccccc2)c(Nc2ncnc3nc(C(C)C)ccc23)c1", "method": "MTT", "result": "8 µM"}
{"compound": "CS(=O)(=O)N[C@@H](C(=O)N1CCC[C@H]1C(=O)Nc1ccc(C#Cc2ccc(NC(=O)[C@@H]3CCCN3C(=O)[C@H](NS(C)(=O)=O)c3ccccc3)cc2)cc1)c1ccccc1", "method": "resazurin", "result": ">10 µM"}

7 of the rows above, restated:

compound	method	result
N#Cc1c(NCCc2ccc(O)cc2)s[nH]c1=O	-	>50 µM
Nc1nc(N2CCOCC2)c2nc(-c3cccnc3F)cnc2n1	-	10–20 µM
CCCCOC(=O)/C=C/c1ccc(O)c(O)c1	MTS	39 µM
Cc1nc(N(C)C)nc(N[C@@H]2C[C@H](CO)[C@@H](O)[C@H]2O)c1-c1nc2ccccc2s1	MTS	>25 µM
CCOc1nc(N)nc2ccc(-c3ccc(NC(=O)C(C)(C)N)cc3)nc12	-	>20 µM
CC(C)Oc1nc(N)nc2ccc(-c3ccc(C(=O)NC4CCCC4)cc3)nc12	-	>20 µM
CCC(=O)Nc1ccc(-c2ccc3nc(N)nc(NCCS(C)(=O)=O)c3n2)cc1	-	>20 µM